Laboratory results as given in ChEMBL document CHEMBL5370647, “Dual Inhibition of Mycobacterium tuberculosis and the Host TGFBR1 by an Anilinoquinazoline” (J Med Chem, 2023).

Biological target: T1, TGF-beta receptor type-1 (Homo sapiens, UniProt P36897)
T1 sequence (P36897 whole entry): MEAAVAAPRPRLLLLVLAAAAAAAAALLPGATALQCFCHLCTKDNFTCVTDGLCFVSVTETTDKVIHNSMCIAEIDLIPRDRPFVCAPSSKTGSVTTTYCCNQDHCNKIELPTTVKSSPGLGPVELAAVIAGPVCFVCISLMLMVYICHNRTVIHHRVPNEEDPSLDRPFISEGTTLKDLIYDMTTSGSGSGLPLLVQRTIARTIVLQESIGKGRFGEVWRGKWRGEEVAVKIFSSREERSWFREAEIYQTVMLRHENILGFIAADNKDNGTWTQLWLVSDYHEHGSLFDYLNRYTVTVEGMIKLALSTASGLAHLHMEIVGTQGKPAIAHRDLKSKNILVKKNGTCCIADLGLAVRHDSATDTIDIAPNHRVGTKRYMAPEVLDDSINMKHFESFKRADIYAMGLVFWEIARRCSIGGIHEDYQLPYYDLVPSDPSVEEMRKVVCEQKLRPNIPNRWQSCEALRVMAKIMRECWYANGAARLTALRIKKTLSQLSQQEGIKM
Assay: Binding affinity to wild type human partial length TGFBR1 (D179 to M503 residues) expressed in bacterial expression system by KINOMEscan assay

Work on `Cc1cccc(-c2nc(Nc3ccc4nn(C)cc4c3)c3ccccc3n2)n1` yielded a Kd greater than 10 µM.
